Results of unrelated studies side by side (data: NIAID ChemDB).

Shared fields: tests in culture; agent: Mycobacterium tuberculosis

ECn is the concentration giving n% inhibition of infection, replication or growth. Conditions beyond the fields shown may differ between rows. Percent inhibition refers to the dose given; in toxicity tests it is the harm to the cells. A number after MIC or MFC names an inhibition level or a share of isolates. a–b is a range or a potency band. Blank or dashed fields: not listed here. MIC bound: limit read from a one-dose screen. For "inactive" no cut-off is given.

smiles,read by,changes,tested at,cell line,conditions,strain or isolate,endpoint,result
O=c1oc2ccc(Br)cc2cc1-c1cn2ccccc2n1,BACTEC,,,,,H37Rv,MIC,>6.25 µg/mL
C/C(=N\OCCc1nnc(NCc2ccccc2)o1)c1ccccc1,,,12.5 µg/mL,,,,inhibition,7–56%
O=C(c1ccncc1)N1C(c2ccccc2)=C(c2ccccc2)Sc2nnc(Cc3ccccc3)n21,,,,,,,MIC,100 µg/mL
C[N+]1(C)[C@@H]2CC[C@H]1CC(OC(=O)C(O)c1ccccc1)C2,BACTEC,,,,,H37Rv,MIC,≥128 µg/mL
CCCCCCCCc1ccc(Oc2ccccc2)c(O)c1,,,,,,H37Rv pMH29:inhA,MIC99,22.9 µg/mL
CCn1cc(C(=O)O)c(=O)c2cc(F)c(N3CCN(Cn4c(O)c(N=NC(N)=S)c5cc(Cl)ccc54)CC3)cc21,BACTEC,,,,,H37Rv,EC50,<12.5 µg/mL
O=c1[nH]nc(-c2ccccc2)n1-c1ccncc1,resazurin,,,,,H37Rv,MIC bound,>6.25 µg/mL
Cc1ccc(OCc2nnc3n2N(C(=O)c2ccncc2)C(c2ccccc2)=C(c2ccccc2)S3)cc1,,,,,,,MIC,100 µg/mL
CC(C)OC(=O)c1cc[n+](CC(=O)c2ccc(F)cc2)cc1.[Br-],resazurin,,,,,H37Rv,MIC,1 µg/mL
CN(C)CCCN1c2ccccc2Sc2ccc(Cl)cc21,,,,,,Isolate C drug-resistant,MBC,40 µg/mL
NC1CCN(c2c(F)cc3c(=O)c(C(=O)O)cn(C4CC4)c3c2Cl)C1,,,,Macrophages,inside macrophages,H37Rv,EC50,<0.1 µg/mL
CCc1cc(C(N)=S)ccn1,,,,,,H37Rv,MIC,1.25 µg/mL
COc1ccc2c3c1OC1C(C)=CCC4C(C2)N(C)CCC314,BACTEC,,,,,H37Rv,MIC bound,>12.5 µg/mL
CCCCC(CC)CN1CN(CC(CC)CCCC)CC(C)(NCCNCC(O)c2ccccc2)C1,,,,,,,MIC,12.5 µM
Cc1ccn2cc(-c3cc4cc(Cl)ccc4oc3=O)nc2c1,BACTEC,,,,,H37Rv,MIC,>6.25 µg/mL
COc1ccc2ccc3ccc(OC)nc3c2n1,BACTEC,,12.5 µg/mL,,,H37Rv,inhibition,34%
CC1COc2c(N3CCN(C)CC3)c(F)cc3c(=O)c(C(=O)O)cn1c23,broth dilution,Rifampicin-resistant,,,,19000,MIC80,0.7 µM
O=C(c1ccncc1)N1C(c2ccccc2)=C(c2ccccc2)Sc2nnc(COc3ccccc3[N+](=O)[O-])n21,,,,,,,MIC,100 µg/mL
CCCCCCCCCCCNCCNC(C)CCc1ccccc1,,,,,,,MIC,25 µM
CCCCS(=O)(=O)Nc1ccc2[nH]c(C(=O)NC(C)(C)c3ccccc3)c(C)c2c1,resazurin,,,,,H37Rv,MIC90,3.13 µM
CCn1cc(C(=O)O)c(=O)c2cc(F)c(N3CCN(Cn4c(O)c(N=NC(N)=O)c5cc(Cl)ccc54)CC3)cc21,BACTEC,,,,,H37Rv,EC50,<12.5 µg/mL
CCCCS(=O)(=O)Nc1ccc2[nH]c(Br)c(C)c2c1,resazurin,,,,,H37Rv,MIC90,0.78 µM
N[C@H](C(=O)O)[C@H]1ON=C(Cl)[C@@H]1O,,,,,,PAS-R,MIC,12.5 µg/mL
C/C(=N\OCc1nnc(N2CCOCC2)o1)c1ccccc1,,,12.5 µg/mL,,,,inhibition,7–56%
CC(C)c1ccc2c(c1)CC[C@H]1[C@](C)(CNCCNN3CCCC3)CCC[C@]21C,,,,,,,MIC,50 µM
O=C(OC1CCCCC1)c1cc(NC(=S)c2ccccc2F)ccc1Cl,BACTEC,,12.5 µg/mL,,,H37Rv,inhibition,59%
CCCCS(=O)(=O)Nc1ccc2[nH]c(C(=O)NC3CCCCC3)c(C)c2c1,resazurin,,,,,H37Rv,MIC90,3.13 µM
CCn1cc(C(=O)O)c(=O)c2cc(F)c(N3CCN(Cn4c(O)c(N=NC(N)=S)c5cc(Br)ccc54)CC3)cc21,BACTEC,,12.5 µg/mL,,,H37Rv,inhibition,93%
NNC(=O)c1ccncc1,,,,,,PMH29:kasA,MIC,0.125 µg/mL
NC(=O)c1cccc2oc3ccccc3c(=O)c12,,,32 µg/mL,,,H37Rv,inhibition,inactive
COc1nc(N)c(NC2O[C@@H](CO)[C@@H](O)[C@@H]2O)c(=O)[nH]1,resazurin,,6.25 µg/mL,,,H37Rv,inhibition,-4%
Cc1ccc2c(=O)c3ccccc3oc2c1C,,,8 µg/mL,,,H37Rv,inhibition,inactive
CC1S/C(=N/N=C2\C(=O)Nc3ccc(Br)cc32)N(c2ccc(Cl)cc2)C1=O,,,,,,H37Rv,EC50,<12 µg/mL
CC(=O)Oc1ccccc1C(=O)Nc1ncc([N+](=O)[O-])s1,visual reading,,,,,Haarlem spoligotype 2,MIC,16 µg/mL
CCCCN=C(N=Nc1c(O)[nH]c2ccc(Br)cc12)SCC(=O)c1ccc(Br)cc1,,,,,,H37Rv,EC50,<12 µg/mL
C/C=C1\C(=O)O[C@]23C=C[C@@H]4C(C(=O)OC)=CO[C@H](O[C@@H]12)[C@@H]43,MTT,,,,,MDR1 clinical isolate,MBC,3.6 µg/mL
O=C(Nc1ccc(NC(=O)c2ccccc2)c2c1C(=O)c1ccccc1C2=O)c1ccccc1,BACTEC,,,,,H37Rv,MIC bound,>12.5 µg/mL
Cc1ccc(CNCCNCc2ccccc2)cc1,,,,,,,MIC,25 µM
O=C(CSc1nc2ccc(Cl)cc2c(=O)n1-c1ccccc1)N=Nc1c(O)[nH]c2ccc(Br)cc12,,,,,,H37Rv,MIC,>12.5 µg/mL
COc1ccc2cc1-c1cc(ccc1O)C[C@H]1c3cc4c(cc3CCN1C)Oc1c(OC)cc3c(c1O4)[C@H](C2)N(C)CC3,resazurin,,,,,H37Rv-PZA-R ATCC 35828,MIC,6.2 µg/mL
Cn1cc(NC(=O)c2cc(NC(=O)Nc3cc(C(=O)Nc4cc(C(=O)NCCC(N)=[NH2+])n(C)c4)n(C)c3)cn2C)cc1C(=O)NCCC(N)=[NH2+],,,,VERO,,H37Rv,MIC,3.13 µg/mL
C=CCNC(=S)N=Nc1c(O)n(C(C)=O)c2ccccc12,,,,,,H37Rv,MIC,>12.5 µg/mL
CO[C@H]1/C=C/O[C@@]2(C)Oc3c(C)c(O)c4c(O)c(c(/C=N/N5CCN(C)CC5)c(O)c4c3C2=O)NC(=O)/C(C)=C\C=C\[C@H](C)[C@H](O)[C@@H](C)[C@@H](O)[C@@H](C)[C@H](OC(C)=O)[C@@H]1C,broth dilution,Bedaquiline-resistant I66M,,,,,MIC80,0.04 µM
O=C1OCCOCCOCCOCCOC(=O)C1c1ccccc1,BACTEC,,,,,H37Rv,MIC bound,>12.5 µg/mL
COc1ccc(CNCCNC(C)c2cccc3ccccc23)cc1OC,,,,,,,MIC,50 µM
O=c1ccc2ncccc2n1CCN1CCC(NCc2cc(Cl)c(Cl)cn2)CC1,resazurin,,,,,BCG,MIC,0.12 µg/mL
O=C(N/N=C/c1ccccc1O)c1cccc2ccccc12,BACTEC,,12.5 µg/mL,,,H37Rv,inhibition,1%
CC1CCC(NCCNCCCCc2ccccc2)CC1,,,,,,,MIC,50 µM
Nc1ccccc1-c1nnc2n1N(C(=O)c1ccncc1)C(c1ccccc1)=C(c1ccccc1)S2,,,,,,,MIC,100 µg/mL
COc1nc2ccc(Br)cc2cc1[C@@H](c1ccccc1)[C@@](O)(CCN(C)C)c1cccc2ccccc12,broth dilution,Bedaquiline-resistant A63P,,,,,MIC80,>10 µM
CCCCS(=O)(=O)Nc1ccc2[nH]c(CNC(=O)c3ccccc3)c(C)c2c1,resazurin,,,,,H37Rv,MIC90,6.25 µM
O=C(O)c1c([N+](=O)[O-])ccc2oc3ccc([N+](=O)[O-])cc3c(=O)c12,,,16 µg/mL,,,H37Rv,inhibition,inactive
Nc1cccc(Nc2cc(S(=O)(=O)O)c(N)c3c2C(=O)c2ccccc2C3=O)c1,BACTEC,,,,,H37Rv,MIC bound,>12.5 µg/mL
CCCCS(=O)(=O)Nc1ccc2[nH]c(C(=O)N3CCN(C(=O)OC(C)(C)C)CC3)c(C)c2c1,resazurin,,,,,H37Rv,MIC90,12–25 µM
CCn1cc(C(=O)O)c(=O)c2cc(F)c(N3CCN(Cn4c(O)c(N=NC(N)=O)c5ccccc54)CC3)cc21,BACTEC,,12.5 µg/mL,,,H37Rv,inhibition,86%
Cc1ccc2c(=O)c3ccccc3oc2c1,,,2 µg/mL,,,H37Rv,inhibition,inactive
N#CC1=C([N+](=O)[O-])NC2OC[C@@H](OCc3ccc(OC(F)(F)F)cc3)CN12,broth dilution,,,,,F420-,MIC,>100 µM
Cc1ncc([N+](=O)[O-])n1CCO,resazurin,,6.25 µg/mL,,,H37Rv,inhibition,10%
O=c1oc2ccccc2cc1-c1cn2cc(Br)ccc2n1,BACTEC,,6.25 µg/mL,,,H37Rv,inhibition,0%
CCc1c2c(nc3ccc(OC(=O)N4CCC(N5CCCCC5)CC4)cc13)-c1cc3c(c(=O)n1C2)COC(=O)[C@]3(O)CC.Cl,BACTEC,,,,,H37Rv,MIC bound,>12.5 µg/mL
O=c1oc2ccc(Br)cc2cc1-c1cn2cc(Br)ccc2n1,BACTEC,,,,,H37Rv,MIC,>6.25 µg/mL
O=C(/C=C/c1ccc(O)c(O)c1)OCc1ccccc1,BACTEC,,,,,H37Rv,MIC bound,>12.5 µg/mL
COc1cnc2ccc(=O)n(CCN3CCC(NCc4cc(Cl)c(Cl)cn4)CC3)c2c1,resazurin,,,,,BCG,MIC,≤0.01 µg/mL
CCCCCCCCCCCNCCNCCC(c1ccccc1)c1ccccc1,,,,,,,MIC,12.5 µM
CCCCCCc1ccc(Oc2ccccc2)c(O)c1,,,,,,W210,MIC99,2.9 µg/mL
CCOc1ccccc1CNCCN[C@@H]1C[C@@H]2C[C@H]([C@H]1C)C2(C)C,,,,,,,MIC,50 µM
C/C(=N\OCCc1nnc(-c2ccc(C)cc2)o1)c1ccccc1,,,12.5 µg/mL,,,,inhibition,7–56%
CCOC(=O)C(=O)Nc1ccc(Cl)c(C(F)(F)F)c1,BACTEC,,12.5 µg/mL,,,H37Rv,inhibition,0%
CCCCS(=O)(=O)Nc1ccc2[nH]c(C(=O)NC3(C)CC3)c(C)c2c1,resazurin,,,,,H37Rv,MIC90,1.6 µM
COc1cccc2cc(-c3cn4ccc(C)cc4n3)c(=O)oc12,BACTEC,,6.25 µg/mL,,,H37Rv,inhibition,8%
O=C1OC(c2ccccc2)=N/C1=C\c1cc2c(cc1Cl)OCO2,BACTEC,,,,,H37Rv,MIC bound,>12.5 µg/mL
Nc1cccc2nc(-c3cc4cccc([N+](=O)[O-])c4oc3=O)cn12,BACTEC,,6.25 µg/mL,,,H37Rv,inhibition,100%
N#Cc1ccc2oc3ccccc3c(=O)c2c1,,,8 µg/mL,,,H37Rv,inhibition,inactive
Cc1c(C(=N)N)oc2ccccc12.Cl,BACTEC,,,,,H37Rv,MIC bound,>12.5 µg/mL
CC(=O)NC[C@H]1CN(c2ccc(N3CCN(Cc4ccc([N+](=O)[O-])s4)CC3)c(F)c2)C(=O)O1,,,,,,16 isolates (MDR),MIC90,1 µg/mL
CN1CCC23c4c5cc(-c6cc7c8c(c6O)OC6C(O)C=CC9C(C7)N(C)CCC896)c(O)c4OC2C(O)C=CC3C1C5.CS(=O)(=O)O,BACTEC,,12.5 µg/mL,,,H37Rv,inhibition,16%
c1ccc(CNc2nnc(CON=C(c3ccccc3)c3ccccc3)o2)cc1,,,12.5 µg/mL,,,,inhibition,7–56%
C[C@H]1COc2c(N3CCN(C)CC3)c(F)cc3c(=O)c(C(=O)O)cn1c23,,,,,,19 strains,MIC90,0.5 µg/mL
CCCCS(=O)(=O)Nc1ccc2[nH]c(C(=O)NC3CCCOC3)c(C)c2c1,resazurin,,,,,H37Rv,MIC90,6.2 µM
Nc1nnc(CON=C(c2ccccc2)c2ccccc2)o1,,,12.5 µg/mL,,,,inhibition,7–56%
C1=C(CCNCCNCCCCc2ccccc2)CCCC1,,,,,,,MIC,12.5 µM
COc1ccc2cc1-c1cc(ccc1O)C[C@H]1c3cc4c(cc3CCN1C)Oc1c(OC)cc3c(c1O4)[C@@H](C2)N(C)CC3,resazurin,,,,,H37Rv-PAS-R ATCC 35821,MIC,3.1 µg/mL
COC(=O)c1cccc2oc3ccccc3c(=O)c12,,,8 µg/mL,,,H37Rv,inhibition,inactive
O=c1oc2c(Br)cc(Br)cc2cc1-c1cn2cc(Br)ccc2n1,BACTEC,,,,,H37Rv,MIC,>6.25 µg/mL
Cc1c(N)nc(C(CC(N)=O)NCC(N)C(N)=O)nc1C(=O)NC(C(=O)NC(C)C(O)CC(=O)NC(C(=O)NC(OC1OC(C)C(N)C(O)C1O)C(O)c1nc(-c2nc(C(=O)NCCC[S+](C)C)cs2)cs1)C(C)O)C(OC1OC(CO)C(O)C(O)C1OC1OC(CO)C(O)C(OC(N)=O)C1O)c1cnc[nH]1.Cl.Cl.Cl.[Cl-],,,,,,PZA-R,MIC,0.2 µg/mL
O=C(O)c1ccc2oc3c(C(=O)O)cc([N+](=O)[O-])cc3c(=O)c2c1,,,16 µg/mL,,,H37Rv,inhibition,inactive